Data as given in PubChem BioAssay AID624099 (ICCB-Longwood, 2012)

Test: 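Host factors E2 relies on to silence an HPV18 LCR reporter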 (primary screen)
System: human C33A cervical carcinoma cells (HPV-negative) stably expressing BPV1 E2 and an HPV18 LCR luciferase reporter
Reagent: siRNA pool against human genes, 40 nM
Time to read-out: 72 h
Read-out: 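HPV18 LCR reporter light per well, converted to plate-wise z-scores that exclude control wells, and averaged over triplicate plates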
Reading the numbers: mean z-score and z-score: higher = stronger reporter signal, weaker E2 silencing
Hit rule: 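Mean z ≥ 2 together with z ≥ 2 in two or more of the three replicates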
Shown is a random part of about 21,000 reagents. Of all reagents, 497 (2.4%) got an active call. 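Higher z means weaker E2 silencing; only reporter increases were scored, and knock-downs that hurt cell survival may mask genuine repressor factors.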 A number with no mark means an inactive call. The numbers tell different reagents against one gene apart.

gene	reagent no.	mean z-score	z-score, replicate A	z-score, replicate B	z-score, replicate C
CHPT1	1	1.67	1.13	1.82	2.07
BTBD19	1	0.35	-0.15	0.82	0.38
WHRN	1	-0.81	-1.22	-0.71	-0.5
MDK	1	-0.57	-0.76	-0.48	-0.47
SNAPC1	1	-0.46	-0.75	-0.37	-0.26
CLSTN3	1	0.23	-0.18	0.71	0.16
BMP10	1	-0.33	-0.17	-0.48	-0.33
RGS19	1	1.38	1.47	1.43	1.23
MRPL24	1	-0.76	-0.91	-1.04	-0.33
RUBCNL	1	0.78	1.03	0.64	0.66
NF2	1	0.74	0.65	0.63	0.94
PIAS1	1	0.66	0.53	0.69	0.76
JOSD1	1	0.6	0.36	0.75	0.7
ZNF486	1	0.29	0.18	0.33	0.36
LOC283584 (retired record)	1	-0.66	-1.02	-0.43	-0.52
MANEAL	1	-2.2	-1.79	-2.39	-2.42
DMRTA2	1	0.29	0.18	0.31	0.37
NUTF2	1	0.32	0.5	0.34	0.1
SLC1A3	1	0.41	0.51	0.11	0.62
GLYCTK	1	-2.24	-2.26	-2.16	-2.29
RAI14	1	0.12	-0.02	0.42	-0.04
OR4S1	1	-0.36	-0.63	-0.16	-0.28
COX7A1	1	-0.04	-0.06	-0.02	-0.04
ZNF625	1	-2	-2.14	-1.86	-2
WDR90	1	1.29	0.93	1.26	1.67
WDR90	2	1.77	1.56	1.58	2.18

Reformatted: results already given.
GLYCTK | mean z-score = -2.24; z-score, replicate A = -2.26; z-score, replicate B = -2.16; z-score, replicate C = -2.29
RAI14 | mean z-score = 0.12; z-score, replicate A = -0.02; z-score, replicate B = 0.42; z-score, replicate C = -0.04
OR4S1 | mean z-score = -0.36; z-score, replicate A = -0.63; z-score, replicate B = -0.16; z-score, replicate C = -0.28
COX7A1 | mean z-score = -0.04; z-score, replicate A = -0.06; z-score, replicate B = -0.02; z-score, replicate C = -0.04
ZNF625 | mean z-score = -2; z-score, replicate A = -2.14; z-score, replicate B = -1.86; z-score, replicate C = -2
WDR90 #1 | mean z-score = 1.29; z-score, replicate A = 0.93; z-score, replicate B = 1.26; z-score, replicate C = 1.67

Further results follow:
gene	reagent no.	mean z-score	z-score, replicate A	z-score, replicate B	z-score, replicate C
OSBPL2	1	0.06	-0.17	0.22	0.13
OSBPL2	2	2.1 (active)	1.59	2.04	2.67
ALDOA	1	2.12 (active)	1.72	2.13	2.51
DNAJB6	1	0.92	0.75	1.03	0.99
CCNB1	1	0.48	0.48	0.38	0.58
TRAPPC5	1	0.17	0.25	0.2	0.08
VNN2	1	1.15	0.76	1.37	1.3
SEMA5A	1	0.81	1.06	1	0.36
CNKSR2	1	0.68	0.69	0.65	0.7
SHC4	1	0.91	0.63	0.62	1.48
FAM219B	1	-0.67	-0.58	-0.85	-0.59
NCOR2	1	-0.14	-0.3	0	-0.11
LMNTD2	1	0.23	0.29	0.26	0.15
MUC12	1	-0.04	-0.38	0.1	0.15
MUC12	2	0.64	0.65	0.69	0.58
PIN1	1	-0.33	-0.38	-0.32	-0.3
DISC1	1	0.2	0.32	0.1	0.18
DISC1	2	0.51	0.26	0.31	0.95
MARCHF2	1	0.34	0.72	-0.09	0.39
LOC348162 (retired record)	1	0.1	0	0.25	0.06
MPLKIP	1	0.71	1.01	0.92	0.2
SLC2A11	1	0.03	-0.28	0.09	0.27
TPTEP2	1	-0.28	-0.25	-0.13	-0.45
COL22A1	1	-0.24	0.07	-0.31	-0.48
KLRA1P	1	0.74	0.56	0.83	0.82
PPP1R8	1	1.15	0.87	1.36	1.23
TSHZ3	1	0.37	-0.1	0.22	0.97
BORCS8-MEF2B	1	2.51 (active)	2.52	2.1	2.91
PPP4R3B	1	0.99	0.88	0.85	1.25
PPM1K	1	-0.52	-0.95	-0.6	-0.02
ELOA2	1	-0.18	-0.03	-0.02	-0.48
